Anti-infective test results gathered from many reports (values: NIAID ChemDB through PubChem).

All rows: target-level tests; species: HIV-1; protein: Integrase

An empty or dashed field is not shown.

compound	tested at	endpoint	strain or isolate	changes	setting	method	value
O=C(/C=C/c1ccc(O)c(O)c1)OCCc1ccc(N=C=S)cc1	-	fold resistance	-	C65S	-	3′ processing	1.75
CC1(C)CC(=O)c2c(nc(-c3coc4cc(OCc5ccc(F)cc5)ccc4c3=O)n2O)C1	-	IC20	-	-	-	3′ processing / radiometric	250 µM
Cc1nnc(C(=O)N2CCC3(CC2)NCCn2c3nc(C(=O)NCc3ccc(F)cc3)c(O)c2=O)o1	-	Ki	-	-	-	binding / radiometric	0.003–0.05 µM
Cc1ccc(S(=O)(=O)Nc2cc(Cl)c3ccc(/C=C/c4ccc(Br)cc4)nc3c2O)cc1	0.05 µM	inhibition	-	-	-	strand transfer	59.5%
Cc1cc(Cl)cc2c1S(=O)(=O)N=C(C(=O)c1ccc(Cl)cc1)S2	-	fold resistance	-	INTG-C65S	-	3′ processing	2.22
COc1cccc(-c2cn3ccn(Cc4cccc(Cl)c4)c(=O)c3c(O)c2=O)c1	-	IC50	-	-	-	ELISA	0.01–0.1 µM
O=C1Cn2c(nc(C(=O)NCc3ccc(F)cc3)c(O)c2=O)CN1	-	IC50	-	-	-	ELISA	<10 µM
Cc1cc2c(cc1Cl)SC(C(=O)c1ccc3ccccc3c1)=NS2(=O)=O	-	fold resistance	-	INTG-C65S	-	3′ processing	1.07
Cn1nnnc1CN1CCn2c(nc(C(=O)NCc3ccc(F)cc3)c(O)c2=O)C1(C)C	-	IC50	-	-	-	ELISA	<10 µM
CC(C)n1c(=O)c(O)c2n(c1=O)CCN(Cc1cc3ccccc3cn1)C2=O	-	IC50	-	-	-	strand transfer	<10 µM
O=S(=O)(Nc1cc(Cl)c2ccc(/C=C/c3ccccc3)nc2c1O)c1ccc(Cl)cc1	0.05 µM	inhibition	-	-	-	strand transfer	82.7%
O=C(O)Cc1cn2ccn(Cc3cccc(Cl)c3)c(=O)c2c(O)c1=O	-	IC50	-	-	-	ELISA	0.01–0.1 µM
Cc1cccc(CNC(=O)c2nc3n(c(=O)c2O)CC2(F)CCC3(NC(=O)C(=O)C(C)C)CC2)c1	-	Ki	NL4-3	-	pseudotyped	binding	0.000003 µM
O=S(=O)(Nc1cc(Cl)c2ccc(/C=C/c3ccc(Br)cc3)nc2c1O)c1ccccc1	0.05 µM	inhibition	-	-	-	strand transfer	74.7%
Cc1cc2c(cc1Cl)SC(C(=O)c1ccc(Cl)cc1)=NS2(=O)=O	-	fold resistance	-	INTG-C65S	-	strand transfer	0.51
O=C(/C=C/c1ccc(O)c(O)c1)Oc1ccc2cccc(N=C=S)c2c1	-	fold resistance	-	C56S	-	3′ processing	11
Cc1cc(Cl)cc2c1S(=O)(=O)N=C(C(=O)c1ccc(Cl)c(Cl)c1)S2	-	fold resistance	-	INTG-C65S	-	strand transfer	0.12
O=C1c2c(O)c(=O)n(CC3CCCN(c4ncccn4)C3)c(=O)n2CCN1Cc1ccc(F)cc1	-	IC50	-	-	-	strand transfer	<10 µM
O=[N+]([O-])c1ccc(S(=O)(=O)Nc2cc(Cl)c3ccc(/C=C/c4ccccc4)nc3c2O)cc1	0.05 µM	inhibition	-	-	-	strand transfer	96.7%
Cc1cc(CNC(=O)c2nc3n(c(=O)c2O)CC2(F)CCC3(NC(=O)C(=O)N(C)CC(C)C)CC2)ccc1F	-	Ki	NL4-3	-	pseudotyped	binding	0.0000021 µM
CS(=O)(=O)N1CCC2(CC1)OCCCn1c2nc(C(=O)NCc2ccc(F)cc2)c(O)c1=O	-	Ki	-	-	-	binding / radiometric	0.001–0.003 µM
Cc1cc2c(cc1Cl)SC(C(=O)c1ccccc1)=NS2(=O)=O	-	fold resistance	-	INTG-C65S	-	strand transfer	7.5
CCOC(=O)c1c(C)nc(-c2coc3cc(OCc4cccc(F)c4)ccc3c2=O)n1O	-	IC20	-	-	-	3′ processing / radiometric	50 µM
Cc1cc(CNC(=O)C23CCC(NC(=O)C(=O)N(C)C)(CC2)c2nc(C(=O)NCc4ccc(F)c(C)c4)c(O)c(=O)n2C3)no1	-	Ki	NL4-3	-	pseudotyped	binding	0.0000021 µM
O=C(/C=C/c1ccc(O)c(O)c1)OCCc1cccc(N=C=S)c1	-	fold resistance	-	C65S	-	3′ processing	2.67
Cc1cc2c(cc1Cl)SC(C(=O)c1cccc([N+](=O)[O-])c1)=NS2(=O)=O	-	fold resistance	-	INTG-C65S	-	strand transfer	1.6
O=S(=O)(Nc1cc(Cl)c2ccc(/C=C/c3ccc(Br)cc3)nc2c1O)c1ccc(Cl)cc1	0.05 µM	inhibition	-	-	-	strand transfer	67.8%
COC(=O)c1cc(O)c(O)c(O)c1	1000 µM	inhibition	-	-	-	3′ processing	73%
CC(C)NC(=S)N(C)CCC1CN(Cc2ccc(F)cc2)C(=O)c2c(O)c(=O)n(C(C)C)c(=O)n21	-	IC50	-	-	-	strand transfer	<10 µM
CN1CCn2c(nc(C(=O)NCc3ccc(F)cc3S(C)(=O)=O)c(O)c2=O)C1(C)C	-	IC50	-	-	-	ELISA	<10 µM
Cc1nnc(C(=O)N2CCC3(C2)OCCn2c3nc(C(=O)NCc3ccc(F)cc3)c(O)c2=O)o1	-	Ki	-	-	-	binding / radiometric	0.001–0.003 µM
O=c1c(-c2ccncn2)cn2ccn(Cc3cccc(F)c3)c(=O)c2c1O	-	IC50	-	-	-	ELISA	0.01–0.1 µM
O=C(/C=C/c1ccc(O)c(O)c1)OCCc1ccccc1	-	fold resistance	-	C56S	-	3′ processing	7
O=C1c2c(O)c(=O)n(CC(F)(F)F)c(=O)n2CCN1Cc1ccc(F)cc1	-	IC50	-	-	-	strand transfer	<10 µM
O=C(NCc1ccc(F)cc1)c1nc2n(c(=O)c1O)CCN(Cc1cn[nH]n1)C2	-	IC50	-	-	-	ELISA	<10 µM
CN(C)S(=O)(=O)N1CCC2(CC1)OCCCn1c2nc(C(=O)NCc2ccc(F)cc2)c(O)c1=O	-	Ki	-	-	-	binding / radiometric	0.001–0.003 µM
CCN(CC)C(=O)c1cc(=O)c(O)c2n1CCN(Cc1ccc(Cl)c(Cl)c1)C2=O	-	IC50	-	-	-	ELISA	0.01–0.1 µM
CN(C)CCCNC(=O)c1ccc2nc(-c3ccc4nc(-c5ccc(OCCOCCOCCOc6ccc(-c7nc8ccc(-c9nc%10ccc(C(=O)NCCCN(C)C)cc%10[nH]9)cc8[nH]7)cc6)cc5)[nH]c4c3)[nH]c2c1	-	Ki	-	-	-	3′ processing	4.7 µM

ICn: concentration for n% inhibition. Neighbouring rows are from separate reports. Percent inhibition refers to the dose given; in toxicity tests it is the harm to the cells. Two numbers with a dash give a range or band. Fold resistance has wild type as its base.